Results of unrelated studies side by side (data: NIAID ChemDB).

Shared fields: toxicity to cultured cells; cell line: HFF; endpoint: CC50

CCn is the concentration with n% toxicity to the cells. An empty or dashed field is not shown. Rows are shuffled and stem from different studies.

structure,read by,result
O=C(Nc1ccc(NC(=S)Nc2ccc(C(F)(F)F)c(Cl)c2)cc1)c1cocn1,MTS,≥10 µg/mL
CCCCCCCC/C=C\CCCCCCCOCCCOP(=O)(O)CO[C@H](CO)Cn1ccc(N)nc1=O,,87 µM
COc1cc(OC)c(NC(=S)Nc2ccc(NC(=O)c3ccco3)c(C)c2)cc1Cl,MTS,≥10 µg/mL
OCC(CO)OCn1cnc2c(Cl)c(Cl)ccc21,visual reading,>100 µM
Cc1cccc(NC(=S)Nc2ccc(NC(=O)c3ccco3)cc2)c1,MTS,≥10 µg/mL
CNc1nc2cc(Cl)c(Cl)cc2n1COCCO,visual reading,>100 µM
Nc1nc2c(ncn2COCCO)c(=O)[nH]1,,>405 µM
Nc1nc2c(Cl)c(Cl)ccc2n1COC(CO)CO,visual reading,>100 µM
COc1nc(N)nc2c1ncn2/C=C1/C[C@H]1CO,,>404 µM
OCCOCn1c(Br)nc2cc(Cl)c(Cl)cc21,visual reading,>100 µM
Nc1nc(N)c2ncn(C=C3CC3CO)c2n1,,266 µM
OC[C@H]1O[C@@H](n2c(Br)nc3cc(Cl)c(Cl)cc32)[C@H](O)[C@@H]1O,,151 µM
CSc1nnnc2c1ncn2[C@@H]1O[C@H](CO)[C@@H](O)[C@H]1O,,100 µM
CCCCCCCC/C=C\CCCCCCCOCCCOP1(=O)CO[C@@H](Cn2ccc(N)nc2=O)CO1,,46 µM
COC(=O)[C@H](C)NP(=O)(OCC1C/C1=C/n1cnc2c(=O)[nH]c(N)nc21)Oc1ccccc1,,>206 µM
NNc1nnnc2c1ncn2[C@@H]1O[C@H](CO)[C@@H](O)[C@H]1O,,70 µM
O[C@@H]1[C@H](O)[C@H](O)CO[C@H]1n1c(Br)nc2cc(Cl)c(Cl)cc21,,130 µM
CCc1cn([C@@H]2O[C@H](CO)[C@@H](O)[C@@H]2F)c(=O)[nH]c1=O,visual reading,14 µM
CNc1nc2cc(Cl)c(Cl)cc2n1COC(CO)CO,visual reading,>100 µM
CC(N=[N+]=[N-])c1cn([C@H]2C[C@H](O)[C@@H](CO)O2)c(=O)[nH]c1=O,,>125 µM
COc1cc(OC)c(NC(=S)Nc2ccc(NC(=O)c3ccco3)cc2)cc1Cl,MTS,≥10 µg/mL
Nc1ncnc2c1ncn2C12CCC(O)C1(CO)C2,,>100 µg/mL
Nc1nc(NC2CC2)c2ncn(C=C3CC3CO)c2n1,,327 µM
CCCCCCCC/C=C\CCCCCCCCOCCOP(=O)(O)CO[C@H](CO)Cn1ccc(N)nc1=O,,56 µM
Nc1nc(N)c2ncn(C34CCC(O)C3(CO)C4)c2n1,,>20 µg/mL
COc1cc(OC)c(NC(=S)Nc2ccc(NC(=O)c3ccco3)c(OC)c2)cc1Cl,MTS,≥10 µg/mL
OCC(CO)OCn1c(Cl)nc2cc(Cl)c(Cl)cc21,visual reading,>100 µM
Nc1nc2ncn(/C=C3/C(F)C3(CO)CO)c2c(=O)[nH]1,,197 µM
[N-]=[N+]=NC(CCl)c1cn([C@H]2C[C@H](O)[C@@H](CO)O2)c(=O)[nH]c1=O,,>150 µM
Nc1ccn(C[C@H]2COP(=O)(O)CO2)c(=O)n1,,>331 µM
CC(N)c1cn([C@H]2C[C@H](O)[C@@H](CO)O2)c(=O)[nH]c1=O,,330 µM
CCCCCCCCCCCCOCCCOP(=O)(O)CO[C@H](CO)Cn1ccc(N)nc1=O,,>190 µM
Cc1cn([C@@H]2O[C@H](CO)[C@@H](O)[C@@H]2F)c(=O)[nH]c1=O,visual reading,0.2 µM
Cc1cn([C@@H]2O[C@H](CO)[C@H]2CO)c(=O)[nH]c1=O,neutral red,>100 µg/mL
Nc1nc(=O)n([C@@H]2O[C@H](CO)[C@@H](O)[C@@H]2F)cc1I,visual reading,7.6 µM
CCO[C@@H]1[C@@H](OCC)[C@H](Cc2ccccc2)O[C@@H]2CO[C@@H](c3ccc(Cl)cc3)O[C@@H]12,,50 µg/mL

Repeating the final 3 entries:

structure,read by,result
Cc1cn([C@@H]2O[C@H](CO)[C@H]2CO)c(=O)[nH]c1=O,neutral red,>100 µg/mL
Nc1nc(=O)n([C@@H]2O[C@H](CO)[C@@H](O)[C@@H]2F)cc1I,visual reading,7.6 µM
CCO[C@@H]1[C@@H](OCC)[C@H](Cc2ccccc2)O[C@@H]2CO[C@@H](c3ccc(Cl)cc3)O[C@@H]12,,50 µg/mL